Results of unrelated studies side by side (data: NIAID ChemDB).

All rows: tests in culture; agent: Candida albicans; endpoint: MIC

Lines come from different laboratories, so protocols vary. An empty or dashed field is not shown.

smiles | strain or isolate | method | value
O=C(Nc1ccc(Cl)c(Cl)c1)c1ncccc1O | ATCC 44859 | - | >250 µM
C[C@@H](SC1COC(/C=C/C=C/c2ccc(C#N)cc2F)OC1)[C@](O)(Cn1cncn1)c1ccc(F)cc1F | TIMM3164 | - | <0.008 µg/mL
O=C1CCC(c2ccc(Oc3ccccc3)cc2)=NN1Cc1n[nH]c(=S)n1-c1ccc(Br)cc1 | - | - | 12 µg/mL
Cn1nc2ccc(NC(=O)c3ccc(Cl)cc3)cc2n1 | ATCC 10231 | - | 100 µg/mL
COc1cc(C)c2c(=O)cc(CC(C)=O)oc2c1C1O[C@@H](CO)[C@H](O)[C@@H](O)[C@@H]1OC(=O)/C=C\c1ccc(O)cc1 | ATCC 10231 | agar diffusion | 1810 µM
CO[C@@H](n1cccn1)[C@@](O)(Cn1cncn1)c1ccc(Cl)cc1 | - | - | >100 µg/mL
Clc1ccc2c(c1)OCC(n1ccnc1)/C2=N\OCc1ccc(Cl)c(Cl)c1 | - | - | 8 µg/mL
C=C(CN1CCN(C)CC1)C(=O)c1ccccc1 | - | - | 128 µg/mL
COc1cc(C(=O)Nc2ccc3nn(C)nc3c2)cc(OC)c1OC | ATCC 10231 | - | 100 µg/mL
C=C(c1ccccc1OCC(C)C)n1ccnc1 | KE-2 | - | 25 µg/mL
Brc1ccc(CO/N=C2\c3ccccc3OCC2n2ccnc2)cc1 | - | - | 4 µg/mL
O=C1NC(=O)/C(=C\c2ccccc2Cl)S1 | MTCC 227 | broth dilution / visual reading | 500 µg/mL
CO[C@@H](n1cncn1)[C@](O)(Cn1cncn1)c1ccc(Cl)cc1 | - | - | >100 µg/mL
C=C(CN1CCN(C)CC1)C(=O)c1ccc(Cl)cc1 | - | - | 64 µg/mL
Brc1ccc(CO/N=C2/c3ccccc3OCC2n2ccnc2)cc1 | - | - | 4 µg/mL
CCO[C@@H](n1cncn1)[C@](O)(Cn1cncn1)c1ccc(F)cc1 | - | - | >100 µg/mL
C[C@@H](CC1COC(/C=C/C=C/c2ccc(C#N)cc2F)OC1)[C@](O)(Cn1cncn1)c1ccc(F)cc1F | TIMM3164 | - | 0.016 µg/mL
Cc1ccc(C2=NN(Cc3n[nH]c(=S)n3-c3ccccc3)C(=O)CC2)cc1 | - | - | 7 µg/mL
Clc1ccc(CO/N=C2\c3ccccc3OCC2n2ccnc2)cc1Cl | - | - | 1 µg/mL
O=C(Nc1ccc(F)cc1)c1ncccc1O | ATCC 44859 | - | 125 µM
N#CSc1ccc2nc(NC(=O)CN3C(=O)S/C(=C/c4ccc(Cl)cc4)C3=O)sc2c1 | MTCC 227 | broth dilution / visual reading | 1000 µg/mL
Cn1nc2ccc(NC(=O)CCl)cc2n1 | ATCC 10231 | - | 200 µg/mL
Clc1ccc(CO/N=C2/c3ccccc3OCC2n2ccnc2)cc1Cl | - | - | 2 µg/mL
Cc1ccc(NC(=O)c2ncccc2S)cc1 | ATCC 44859 | - | 7.81 µM
Clc1ccc2c(c1)OCC(n1ccnc1)/C2=N\OCc1ccccc1 | - | - | 4 µg/mL
CO[C@@H](n1ccnc1C)[C@](O)(Cn1cncn1)c1ccc(Cl)cc1 | - | - | >100 µg/mL
COc1ccc(/C=C2/SC(=O)N(CC(=O)Nc3nc4ccc(SC#N)cc4s3)C2=O)cc1 | MTCC 227 | broth dilution / visual reading | 100 µg/mL
O=C1CCC(c2ccccc2)=NN1Cc1n[nH]c(=S)n1-c1ccccc1 | - | - | 4 µg/mL
Clc1ccc(CO/N=C2/c3ccc(Cl)cc3OCC2n2ccnc2)c(Cl)c1 | - | - | 8 µg/mL
O=C(Nc1ccccc1)c1ncccc1O | ATCC 44859 | - | 125 µM
CN[C@@H]1[C@H](O[C@@H]2OC[C@@H](O)[C@H](O)[C@H]2O)[C@@H](O)[C@H](O[C@H]2c3cc(C)c(C(=O)N[C@H](C)C(=O)O)c(O)c3-c3c(cc4c(c3O)C(=O)c3cc(OC)cc(O)c3C4=O)[C@@H]2O)O[C@@H]1C | IAM4888 | - | 6.3 µg/mL
O=C1CSC(=O)N1 | MTCC 227 | broth dilution / visual reading | 250 µg/mL
O=C(Nc1ccc([N+](=O)[O-])cc1)c1ccccc1O | ATCC 44859 | - | 62.5 µM
CCCCCCCCCCSCC(OC)C(=O)O | ATCC 60193 | - | 0.00124 µM
C=C(CN1CCOCC1)C(=O)c1ccccc1 | - | - | 16 µg/mL
Cc1c(O)cccc1C(=O)N[C@@H](CSc1ccccc1)[C@H](O)CN1C[C@H]2CCCC[C@H]2C[C@H]1C(=O)NC(C)(C)C | I130B | - | 64 µg/mL
N#CSc1ccc2nc(NC(=O)CN3C(=O)S/C(=C/c4cccc(Br)c4)C3=O)sc2c1 | MTCC 227 | broth dilution / visual reading | 500 µg/mL
C=C(CN1CCOCC1)C(=O)c1ccc(OC)cc1 | - | - | 128 µg/mL
O=C1CCC(c2ccc(Br)cc2)=NN1Cc1n[nH]c(=S)n1-c1ccc(Cl)cc1 | - | - | 5 µg/mL
COc1cc(/C=C2/SC(=O)NC2=O)cc(OC)c1OC | MTCC 227 | broth dilution / visual reading | 500 µg/mL
O=C(Nc1ccc([N+](=O)[O-])cc1)c1ncccc1O | ATCC 44859 | - | >250 µM

For reference, 6 entries again:

smiles,strain or isolate,method,value
C=C(c1ccccc1OCC(C)C)n1ccnc1,KE-2,-,25 µg/mL
O=C1NC(=O)/C(=C\c2ccccc2Cl)S1,MTCC 227,broth dilution / visual reading,500 µg/mL
C=C(CN1CCOCC1)C(=O)c1ccccc1,-,-,16 µg/mL
C=C(CN1CCN(C)CC1)C(=O)c1ccc(Cl)cc1,-,-,64 µg/mL
Cc1ccc(NC(=O)c2ncccc2S)cc1,ATCC 44859,-,7.81 µM
Clc1ccc(CO/N=C2/c3ccccc3OCC2n2ccnc2)cc1Cl,-,-,2 µg/mL